The subject of one data set is X4-tropic HIV-1-LAI. Put plainly: Antiviral assay, PHA-P-activated PBMC infected with HIV-1-LAI, RT activity in supernatants. In kind it is cell-based. To be noted: for EC50: read-out: ED50 (the source's name).
The test system of another data set is R5-tropic HIV-1/Ba-L. Put plainly: Antiviral assay, PHA-P-activated PBMC infected with HIV-1/Ba-L, RT activity in supernatants. It is filed as cell-based. Particulars: for EC50: read-out: ED50 (the source's name).
Data set [1] is described as follows: Cytotoxicity, MTT assay on day 7. It is filed as cell-based. Particulars: human, uninfected PHA-P-activated PBMC, Table 7, read-out: Cytotoxicity CT50. On the procedure: (§1) In parallel, cytotoxicity of the samples was evaluated in uninfected PHA-P-activated PBMC by a methyltetrazolium salt (MTT) assay on day 7. Experiments were performed in triplicate and 50, 70 and 90% effective doses and cytotoxic doses were calculated using SoftMaxPro software.
In general terms: Tetrazolium assays rely on reduction of a dye to a coloured formazan, in cell work by metabolically active cells.

Data set [2] deals with uninfected PHA-P-activated PBMC. The experiment in a line: Cytotoxicity, MTT assay on day 7. In kind it is cell-based. To be noted: Table 7. How it is done:
as §1

For the next data set, the target named is T1, gp120 MN/HS interaction (Human immunodeficiency virus type 1 group M subtype B, UniProt P05877).
T1 construct: of mCD4-HS12 for MN and YU2 gp120
The experiment in a line: Biacore inhibition of gp120 MN binding to HS surface. Also noted: species or system HIV. To be noted: gp120 MN and inhibitors at 40 nM. On the procedure: FIG. 5: Diagram representing the binding of gp120 (MN) to HS.
(§2) Two different gp120 were used, originating from a type X4 isolate (gp120 MN) and a type R5 isolate (gp120 YU2). The capacity of different molecules to inhibit gp120 interactions with various receptors or co-receptors is measured by surface plasmonic resonance (Biacore). To do this, three compounds are immobilized on the surface of a biosensor (Sensorchip CM 4 Biacore) in accordance with the described procedure (Vives et al. J. Biol. Chem. 279, 54327-54333, 2005). These are CD4, HS (or heparin) and a monoclonal antibody (mAb 17b). This antibody recognizes the epitope induced by CD4 and mimics co-receptor CCR5 or CXCR4. These three surfaces represent the three main molecules on the cell surface recognized by gp120 (CD4, co-receptors and HS).
(§3) In the set of experiments described below, gp120 (light lines on FIGS. 4 to 6) alone or pre-incubated with the compound to be tested (heavy lines on FIGS. 4 to 6) is injected onto these surfaces, and the interaction signal is measured as a function of time for five minutes.

In data set [3] the target is gp120 MN/mAb 17b interaction (Human immunodeficiency virus type 1 group M subtype B, UniProt P05877). The experiment in a line: Biacore gp120 MN binding to mAb 17b surface. Details: species or system HIV. Particulars: gp120 MN and inhibitors at 40 nM; FIG. 6. On the procedure: (§4) FIG. 6: Diagram representing the binding of gp120 (YU2 or MN) to mAb 17b.
(§5) FIG. 7: Diagram representing the binding of gp120 MN (top) or YU2 (bottom) to mAb 17b.
as §2, §3
(§6) The quantity of gp120 bound to the antibody is measured at the end of the injection.
Background: In SPR one partner is held on a chip, and binding of the other changes the refractive index at the surface.

The target of data set [4] is gp120 YU2/mAb 17b interaction (Human immunodeficiency virus type 1 group M subtype B, UniProt P35961). Put plainly: Biacore gp120 YU2 binding to mAb 17b surface. Also noted: species or system HIV. Particulars: gp120 YU2 and inhibitors at 40 nM; FIG. 6. How it is done: as §4, §5, §2, §3, §6
A further data set concerns gp120/sCD4 interaction. The experiment in a line: Biacore gp120 binding to sCD4 surface (FIG. 2). To be noted: FIG. 2 middle. On the procedure: Affinity of synthesized miniCD4 for gp120 was evaluated by Biacore.
Data set [5] deals with gp120/mAb 17b interaction. Put plainly: Biacore gp120 binding to mAb 17b surface, gp120 isolate not named (FIG. 2, FIG. 8). To be noted: FIG. 2 bottom; mCD4 in complex with gp120. How it is done:
FIG. 8: Diagram representing the binding of gp120 to mAb 17b.
In the following experiment, 40 nM of gp120 was co-incubated with 80 nM of mCD4 and 80 nM of the various molecules mentioned above, or 80 nM of corresponding covalent conjugates. The interaction with 17b is measured. T represents measurement of gp120 binding to mCD4 alone.

The mark [6] stands for this setting: Table 6, LAI (X4), 100 TCID50, day 7, RT activity, ±S.D.
Setting [7] is: Table 6, /Ba-L (R5), 100 TCID50, day 7, RT activity, ±S.D.

Where two headings read alike, the source gives them in different places.

As to `CC(C)C[C@@H]1NC(=O)CNC(=O)[C@H](CC(C)C)NC(=O)[C@H](CO)NC(=O)[C@H](CO)NC(=O)[C@@H]2CSSC[C@@H](C(=O)N[C@H](C(N)=O)C(C)C)NC(=O)[C@H](C)NC(=O)[C@@H]3CSSC[C@H](NC(=O)[C@H](CCCCN)NC(=O)[C@H](Cc4c[nH]cn4)NC(=O)[C@H](CC(C)C)NC(=O)[C@H](CC(N)=O)NC(=O)CCSSC[C@H](NC(=O)[C@H](CCCNC(=N)N)NC(=O)CNC(=O)[C@H](CC(C)C)NC1=O)C(=O)N[C@@H](C)C(=O)NCC(=O)N[C@@H](CO)C(=O)N[C@@H](Cc1ccc(-c4ccccc4)cc1)C(=O)N3)C(=O)N[C@@H](CCC(N)=O)C(=O)N[C@@H](CC(C)C)C(=O)N[C@@H](CCCNC(=N)N)C(=O)N2` [mCD4], the ED70 in the data set on X4-tropic HIV-1-LAI (setting [6]) was 377 ± 169 nM; in the data set with X4-tropic HIV-1-LAI (Table 7, VIH-1-LAI) it was over 1000 nM; in the data set with R5-tropic HIV-1/Ba-L (setting [7]) it was over 500 nM; with R5-tropic HIV-1/Ba-L (Table 7, VIH-1/Ba-L), over 1000 nM. The ED90 in the data set on X4-tropic HIV-1-LAI (setting [6]) was 560 ± 222 nM; with X4-tropic HIV-1-LAI (Table 7, VIH-1-LAI), over 1000 nM; in the data set with R5-tropic HIV-1/Ba-L (setting [7]) it was over 500 nM; in the data set on R5-tropic HIV-1/Ba-L (Table 7, VIH-1/Ba-L), over 1000 nM. For the same compound, the EC50 with X4-tropic HIV-1-LAI (setting [6]) is 244 ± 18 nM; in the data set on X4-tropic HIV-1-LAI (Table 7, VIH-1-LAI), 387 nM; in the data set on R5-tropic HIV-1/Ba-L (setting [7]) it was over 500 nM; in the data set with R5-tropic HIV-1/Ba-L (Table 7, VIH-1/Ba-L) it was over 1000 nM. Besides, in data set [1], the CC50 at 168 h is over 1000 nM. In addition, the “Cytotoxicity CT70” value in data set [2] is over 1000 nM. Also, in [2], the “Cytotoxicity CT90” value is on record as over 1000 nM. Besides, the “inhibition of gp120/HS interaction” value at gp120 MN/HS interaction is reported as “no effect”. Further, the “effect on gp120 binding to mAb 17b” value in [3] and in data set [4] was “greatly enhances this reaction” throughout. The “gp120 binding to sCD4 surface” value in the data set with gp120/sCD4 interaction is given as “inhibited by nM concentration of mCD4”. In addition, the “gp120 binding to mAb 17b surface” value in [5] is “promotes gp120 binding to mAb 17b surface”.

For the origin of these results see patent US9295730B2, “Conjugated molecules comprising a peptide derived from the CD4 receptor coupled to a polyanion for the treatment of AIDS” (Institut Pasteur, priority 2008, dated 2016).
